For two molecules, IC50 results are on record in paper PMC8694051 (Proceedings of the National Academy of Sciences of the …, 2021).

The target in one test is T1, Caspase 3 (Homo sapiens, UniProt P42574).
T1 sequence (P42574 29-277): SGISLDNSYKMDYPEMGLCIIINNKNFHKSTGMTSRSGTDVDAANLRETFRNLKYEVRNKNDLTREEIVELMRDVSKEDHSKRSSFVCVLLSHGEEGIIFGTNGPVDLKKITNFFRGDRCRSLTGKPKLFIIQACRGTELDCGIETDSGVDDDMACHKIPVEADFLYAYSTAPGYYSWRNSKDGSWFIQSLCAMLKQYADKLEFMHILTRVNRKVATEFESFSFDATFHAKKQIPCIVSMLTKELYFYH
As to the kind of experiment: Protease profiling panel, 10-dose IC50. The test is classed as biochemical.

A further test concerns the target T2, Elastase (Homo sapiens, UniProt P08246).
T2 sequence (P08246 30-267): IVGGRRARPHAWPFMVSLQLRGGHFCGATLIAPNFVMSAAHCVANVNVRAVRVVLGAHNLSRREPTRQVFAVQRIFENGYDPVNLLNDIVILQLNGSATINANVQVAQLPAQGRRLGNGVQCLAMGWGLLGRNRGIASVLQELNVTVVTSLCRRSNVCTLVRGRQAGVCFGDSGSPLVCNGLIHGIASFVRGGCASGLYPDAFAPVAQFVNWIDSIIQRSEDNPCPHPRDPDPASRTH
The test can be described thus: Protease profiling panel, 10-dose IC50. The test is classed as biochemical.

`CC(=O)N[C@@H](CC(=O)O)C(=O)N[C@@H](CCC(=O)O)C(=O)N[C@H](C(=O)N[C@H](C=O)CC(=O)O)C(C)C` [DEVD-CHO] showed an IC50 against Caspase 3 of 1.07 nM.
On Elastase, `CC(C)(C)C(=O)Oc1ccc(S(=O)(=O)Nc2ccccc2C(=O)NCC(=O)O)cc1` [Sivelestat] showed an IC50 of 4.83 nM.
